Results: paper PMC12313075, “Legionella effector LpPIP recruits protein phosphatase 1 to the mitochondria to induce dephosphorylation of outer membrane proteins” (2025)

Legend:
Experiment in all cases: co-immunoprecipitation (anti-FLAG) and mass spectrometry
Conditions in all cases: read off a plot
[1] = molecular target: MGST3
[2] = molecular target: VDAC1
[3] = molecular target: RMDN3
[4] = molecular target: VDAC2
[5] = molecular target: TOMM70A
[6] = molecular target: VDAC3

Substance: FLAG-Lpg1625 (LpPIP, Legionella pneumophila PP1-Interacting Protein) (from UniProt Q5ZV17) K17A; V19A
- enrichment [1]: 1.7 log2
- enrichment [2]: 5.6 log2
- enrichment [3]: 2.4 log2
- enrichment [4]: 3.3 log2
- enrichment [5]: 2.6 log2
- enrichment [6]: 3.4 log2
